Assay: Inhibition Frequency Index (IFI), promiscuity

Structure (SMILES)	IFI
COc1cc(CS(C)(=O)=O)ccc1Nc1nc(Nc2cc(F)ccc2C(N)=O)c2cc[nH]c2n1 [Compound 10]	7.9
CCn1cc(-c2ccncn2)c(-c2cccc(NS(=O)(=O)c3cc(F)ccc3F)c2)n1 [Compound 2]	5.6
O=C(c1cccc(OCc2cccnc2)c1)N1CCc2sccc2C1CN1CCCCC1 (stereo not drawn) [Compound 14]	2.8
Nc1nc(Nc2cccc3cnccc23)nn1C(=O)C1CCCCC1 [Compound 16]	4.2
COc1cccc(Nc2nc(-c3ccncc3)cc(N3CCN(C)CC3)n2)c1 [Compound 9]	6.6
Cc1ccc(S(C)(=O)=O)cc1Nc1nccc(-c2sc(CC(N)=O)nc2-c2ccccc2)n1 [Compound 3]	16.4
O=C(N[C@@H](CO)c1ccccc1)c1ccc2cncc(-c3cn[nH]c3)c2n1 [Compound 11]	5.7
NCCNCc1ccc(-c2cc3ccncc3cc2OC2CCNCC2)s1 [Compound 12]	3.8
CCn1c(-c2nonc2N)nc2c(-c3ccccc3)ncc(CN(C)C3CCN(C)CC3)c21 [Compound 5]	3.6
COc1ccc(CCNC(=O)CSc2ncnc3[nH]ncc23)cc1OC [Compound 8]	1.9
COc1ccc(-c2c(-c3cccc(C(=O)N4CCN(C)CC4)c3)oc3ncnc(N)c23)cc1 [Compound 7]	6.2
CNCCOc1cnc(-c2ccoc2C)c(-c2ccc3cnccc3c2)c1 [Compound 13]	10.1
CNS(=O)(=O)c1cccc(Nc2ccnc(Nc3cccc(S(=O)(=O)NC)c3)n2)c1 [Compound 6]	8.4
CC(C)(CN)c1cc(-c2ccc(Cl)c(O)c2)c(-c2ccncc2)o1 [Compound 4]	6.8
Nc1ccc2c(-c3ccncc3)c(-c3ccc(Cl)c(O)c3)[nH]c2n1 [Compound 15]	5.6
